# Literature values as cited in patent US9468209B2, “Method for eradicating weeds with derivatives of 3-acetyl-5-sec-butyl-4-hydroxy-3-pyrrolin-2-one” (priority 2012, dated 2016).
# By UniProt entry, the sequences of proteins in these tests, tags left out. Where a name states a change or a piece, a line headed by the entry shows the natural chain unless it says otherwise.
# UniProt P93836: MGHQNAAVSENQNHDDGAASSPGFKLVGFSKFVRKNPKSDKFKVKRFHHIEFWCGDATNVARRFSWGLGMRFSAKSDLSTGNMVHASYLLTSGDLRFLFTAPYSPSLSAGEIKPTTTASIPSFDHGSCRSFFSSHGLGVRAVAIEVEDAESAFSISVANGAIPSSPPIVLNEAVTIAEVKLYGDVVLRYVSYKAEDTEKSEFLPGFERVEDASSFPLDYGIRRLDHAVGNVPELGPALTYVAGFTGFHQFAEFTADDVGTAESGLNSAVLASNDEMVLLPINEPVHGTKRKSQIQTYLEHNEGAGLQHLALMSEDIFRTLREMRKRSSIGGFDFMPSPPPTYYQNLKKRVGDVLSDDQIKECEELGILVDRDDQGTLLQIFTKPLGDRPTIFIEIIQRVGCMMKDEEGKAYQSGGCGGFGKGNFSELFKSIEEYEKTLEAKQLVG
# Target: 4-hydroxyphenylpyruvate dioxygenase (HPPD) (Arabidopsis thaliana, UniProt P93836)
# Conditions: Meazza et al., 2002; cited from earlier work
substance,measurement,value
tenuazonic acid copper salt,inhibition to HPPD,slight inhibition
